Experimental data published in PubChem BioAssay AID559 (PCMD, 2006).
Only a part is listed here, and it is no random draw. Activity calls are given as the source filed them. No stated cut-off is given here; in the data, active means inhibition above about 20%; inactive means the rest.

Sequences of proteins named here, by UniProt entry; tags and fusion partners are left off.
UniProt P0A8V2, whole entry: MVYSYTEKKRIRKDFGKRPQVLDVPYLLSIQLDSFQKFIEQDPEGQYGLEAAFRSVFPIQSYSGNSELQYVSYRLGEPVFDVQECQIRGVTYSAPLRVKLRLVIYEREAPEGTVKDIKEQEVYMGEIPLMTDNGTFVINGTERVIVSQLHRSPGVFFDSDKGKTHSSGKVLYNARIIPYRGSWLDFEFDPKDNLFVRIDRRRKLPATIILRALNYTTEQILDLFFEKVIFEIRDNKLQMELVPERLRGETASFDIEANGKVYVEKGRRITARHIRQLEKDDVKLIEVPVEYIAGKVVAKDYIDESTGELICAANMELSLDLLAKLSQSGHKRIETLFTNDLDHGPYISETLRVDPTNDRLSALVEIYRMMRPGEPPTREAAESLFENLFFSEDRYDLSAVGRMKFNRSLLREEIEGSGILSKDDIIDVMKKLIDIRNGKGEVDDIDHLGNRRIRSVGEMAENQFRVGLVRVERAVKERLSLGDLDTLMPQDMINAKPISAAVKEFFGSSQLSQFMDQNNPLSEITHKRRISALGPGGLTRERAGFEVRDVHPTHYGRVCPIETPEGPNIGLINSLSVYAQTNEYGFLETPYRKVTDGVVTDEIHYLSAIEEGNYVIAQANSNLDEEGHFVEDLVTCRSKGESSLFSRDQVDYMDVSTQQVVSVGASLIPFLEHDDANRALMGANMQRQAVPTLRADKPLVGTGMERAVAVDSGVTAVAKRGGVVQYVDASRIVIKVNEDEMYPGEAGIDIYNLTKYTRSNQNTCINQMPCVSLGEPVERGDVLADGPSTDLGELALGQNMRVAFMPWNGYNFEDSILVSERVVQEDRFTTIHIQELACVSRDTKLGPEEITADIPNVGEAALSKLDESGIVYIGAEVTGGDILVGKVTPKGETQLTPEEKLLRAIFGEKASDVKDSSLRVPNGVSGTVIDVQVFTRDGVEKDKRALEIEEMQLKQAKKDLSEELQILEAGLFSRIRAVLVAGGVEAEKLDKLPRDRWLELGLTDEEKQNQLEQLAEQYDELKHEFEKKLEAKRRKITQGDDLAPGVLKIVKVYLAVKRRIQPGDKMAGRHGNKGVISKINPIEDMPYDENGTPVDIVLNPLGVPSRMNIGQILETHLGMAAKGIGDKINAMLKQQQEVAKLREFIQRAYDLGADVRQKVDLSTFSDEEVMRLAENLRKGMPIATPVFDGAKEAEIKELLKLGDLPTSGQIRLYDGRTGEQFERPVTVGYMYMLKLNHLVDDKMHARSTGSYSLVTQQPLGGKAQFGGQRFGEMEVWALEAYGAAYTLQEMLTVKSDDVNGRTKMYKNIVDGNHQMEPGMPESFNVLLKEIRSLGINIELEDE

What follows are compounds tested against DNA-directed RNA polymerase subunit beta (Escherichia coli (strain K12)) (UniProt P0A8V2) (assay: E. coli RNAP inhibitors, biochemical (AID 559;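 further: 0% = enzyme without compound and 100% = no enzyme blank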)). Conditions: fluorescence transcription assay, active compounds read high,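 tested at 10 µM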.

| Compound | inhibition |
| --- | --- |
| Cc1nc2ccc3ccccc3c2s1.O=[N+]([O-])c1cc([N+](=O)[O-])c(O)c([N+](=O)[O-])c1 | inactive: 7.5% |
| Cc1ccc(C)c(NP(C)(=O)Oc2ccccc2)c1 (stereo not drawn) | inactive: -2.81% |
| Cc1ccc(NP(C)(=O)Oc2ccccc2)c(C)c1 (stereo not drawn) | inactive: 5.2% |
| COc1ccccc1OP(C)(=O)Nc1ccc(C)cc1 (stereo not drawn) | inactive: -5.01% |
| CP(=S)(Nn1cnnc1)Oc1ccccc1 (stereo not drawn) | inactive: 8.76% |
| CP(=O)(NC(=O)Nc1ccccc1)Oc1ccccc1 (stereo not drawn) | inactive: -4.45% |
| CCOP(C)(=S)SCC(=O)NC(C)C(=O)O (stereo not drawn) | inactive: -0.21% |
| CCN(CC)CC(O)COC(=O)C(O)(c1ccccc1)C1CCCCC1 (stereo not drawn) | inactive: 7.67% |
| CP(=O)(Oc1ccccc1)N1CCOC1=O (stereo not drawn) | inactive: 6.15% |
| COc1ccccc1OP(C)(=O)Nc1c(C)n(C)n(-c2ccccc2)c1=O (stereo not drawn) | inactive: 9.87% |
| COc1ccccc1OP(C)(=O)Nc1ccc(C)c(C)c1 (stereo not drawn) | inactive: 8.42% |
| Cc1nc2ccc3ccccc3c2o1.O=[N+]([O-])c1cc([N+](=O)[O-])c(O)c([N+](=O)[O-])c1 | inactive: -9.72% |
| CP(=O)(Nc1ccccn1)Oc1ccccc1 (stereo not drawn) | inactive: 8.42% |
| CP(=O)(Nc1ccccc1F)Oc1ccccc1 (stereo not drawn) | inactive: 3% |
| CN(C)CCOC(=O)C(O)(c1ccccc1)C1CCCCC1 (stereo not drawn) | inactive: 2.66% |
| CCOP(C)(=S)SCC(=O)NC(C)(CC)C(=O)O (stereo not drawn) | inactive: 10.7% |
| CP(=O)(Nc1ccc2c(c1)OCCO2)Oc1ccccc1 (stereo not drawn) | inactive: 15.5% |
| Cc1ccccc1NP(C)(=O)Nc1ccccc1C | inactive: 5.54% |
